The target of assay [1] is T1, NS3-NS4 (Hepatitis C virus genotype 1a, UniProt P27958). Kind of assay: NS3-NS4 activity, IC50 (Example 37, Table 8). In kind it is biochemical.
For assay [2], the target named is T1, NS3-NS4. The note with it: NS3-NS4 activity.

The chains behind the UniProt entries cited, without tags or fusion partners. Residues count along the entry.
UniProt P27958, 1027-1657 limits assumed: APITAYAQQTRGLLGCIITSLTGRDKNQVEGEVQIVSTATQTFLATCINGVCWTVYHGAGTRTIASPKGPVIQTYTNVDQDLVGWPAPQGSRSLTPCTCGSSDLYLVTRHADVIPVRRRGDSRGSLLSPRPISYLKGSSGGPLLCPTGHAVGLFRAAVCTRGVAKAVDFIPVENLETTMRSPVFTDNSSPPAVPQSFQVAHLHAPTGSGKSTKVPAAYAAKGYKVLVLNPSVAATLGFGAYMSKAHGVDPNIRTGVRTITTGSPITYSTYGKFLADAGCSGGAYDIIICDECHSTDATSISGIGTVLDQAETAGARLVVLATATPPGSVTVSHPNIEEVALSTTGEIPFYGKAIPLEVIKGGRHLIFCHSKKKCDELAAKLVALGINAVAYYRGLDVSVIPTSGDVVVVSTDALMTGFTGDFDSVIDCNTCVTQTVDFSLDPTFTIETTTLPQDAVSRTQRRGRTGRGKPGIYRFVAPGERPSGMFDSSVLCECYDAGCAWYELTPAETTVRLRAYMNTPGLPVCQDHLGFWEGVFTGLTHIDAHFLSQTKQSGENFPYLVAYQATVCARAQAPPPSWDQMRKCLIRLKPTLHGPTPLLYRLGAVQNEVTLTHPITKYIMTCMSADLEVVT
UniProt P27958, 1658-1711 partner limits assumed: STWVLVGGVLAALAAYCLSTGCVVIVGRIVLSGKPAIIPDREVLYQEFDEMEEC

Some results are limits rather than exact numbers.

From patent US20090155209A1, “NOVEL MACROCYCLIC INHIBITORS OF HEPATITIS C VIRUS REPLICATION” (priority 2007, published 2009) come the findings set out here.

As a reminder, the IC50 is the point on the concentration scale where inhibition reaches its midpoint. A lower IC50 goes with greater potency in that assay. A word on the EC50: it is the concentration giving half of the maximal effect. A high value points to a need for much substance. At NS3-NS4 [1], `CCC1(S(=O)(=O)NC(=O)[C@@]23C[C@H]2/C=C\CCCCC[C@H](NC(=O)OC(C)(C)C)C(=O)N2C[C@H](OC(=O)N4Cc5cccc(F)c5C4)C[C@H]2C(=O)N3)CC1` displayed an IC50 below 100 nM. Further, the EC50 on NS3-NS4 [2] is below 100 nM.
Compound `CC(C)(C)OC(=O)N[C@H]1CCCCC/C=C\[C@@H]2C[C@@]2(C(=O)NS(=O)(=O)C2(C)CC2)NC(=O)[C@@H]2C[C@@H](OC(=O)N3Cc4cccc(F)c4C3)CN2C1=O` [Compound 444] displayed an IC50 against NS3-NS4 [1] below 100 nM. The same compound displayed a half-maximal effective concentration (EC50) on NS3-NS4 [2] below 100 nM.
As to `COCC1(S(=O)(=O)NC(=O)[C@@]23C[C@H]2/C=C\CCCCC[C@H](NC(=O)OC(C)(C)C)C(=O)N2C[C@H](OC(=O)N4Cc5cccc(F)c5C4)C[C@H]2C(=O)N3)CC1`, the IC50 against NS3-NS4 [1] is below 100 nM. This compound had an EC50 on NS3-NS4 [2] below 100 nM.
In turn, `CC(C)CC1(S(=O)(=O)NC(=O)[C@@]23C[C@H]2/C=C\CCCCC[C@H](NC(=O)OC(C)(C)C)C(=O)N2C[C@H](OC(=O)N4Cc5cccc(F)c5C4)C[C@H]2C(=O)N3)CC1` returned an IC50 against NS3-NS4 [1] below 100 nM. This compound yielded an EC50 at NS3-NS4 [2] below 100 nM.
At NS3-NS4 [1], `CCCC1(S(=O)(=O)NC(=O)[C@@]23C[C@H]2/C=C\CCCCC[C@H](NC(=O)OC(C)(C)C)C(=O)N2C[C@H](OC(=O)N4Cc5cccc(F)c5C4)C[C@H]2C(=O)N3)CC1` had a half-maximal inhibitory concentration (IC50) below 100 nM. In addition, the half-maximal effective concentration (EC50) at NS3-NS4 [2] is below 100 nM.
